We go through 2 substances from US20100292135A1 (priority 2005, published 2010).

Sequences of proteins named here, by UniProt entry; tags and fusion partners are left off. A change or cut given only in a name is not applied to a line headed by its entry.
UniProt P0A7G6: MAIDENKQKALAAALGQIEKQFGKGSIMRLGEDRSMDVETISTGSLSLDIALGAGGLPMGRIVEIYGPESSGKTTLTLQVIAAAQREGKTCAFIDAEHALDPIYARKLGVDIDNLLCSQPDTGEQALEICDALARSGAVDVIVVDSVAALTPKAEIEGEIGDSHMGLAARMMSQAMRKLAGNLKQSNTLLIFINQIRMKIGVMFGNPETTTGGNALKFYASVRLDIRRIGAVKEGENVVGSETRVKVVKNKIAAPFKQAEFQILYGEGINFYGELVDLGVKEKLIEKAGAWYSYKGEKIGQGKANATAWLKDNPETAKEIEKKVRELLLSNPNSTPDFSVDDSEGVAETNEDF

For assay [1], the target named is T1, RecA protein (Escherichia coli, UniProt P0A7G6). As to the kind of experiment: Precipitation/aggregation of RecA in vitro (turbidity, visual inspection).
Assay [2] addresses T1, RecA protein. In words: ssDNA-dependent RecA-catalyzed ATP hydrolysis (ATPase) assay. The class given is biochemical, E. coli. The following applies: components of the Zn complex tested separately.

For Bi(NO3)3, in assay [1], the “precipitation/aggregation of RecA in vitro” value is “precipitates RecA in vitro”.
Turning to ZnCl2, the “inhibition of RecA ATPase activity (in words)” value in assay [2] is “a degree of inhibition similar to the complex”. Also, in assay [1], the “precipitation/aggregation of RecA in vitro” value is reported as “inactivate the RecA protein in vitro by initiating protein aggregation”. The “concentration causing turbidity in the solution” value in assay [1] (visual inspection) is 200 µM.
